Measured values published in article PMC8351594, “Design of Novel Amphipathic α-Helical Antimicrobial Peptides with No Toxicity as Therapeutics against the Antibiotic-Resistant Gram-Negative Bacterial Pathogen, Acinetobacter Baumannii” (Journal of medicinal chemistry and drug design, 2019).
Square brackets hold non-standard residues; d marks the D form. Peptide text beside a SMILES is read from it. Dab = NCC[C@H](N)C(=O)O; Dap = NC[C@H](N)C(=O)O

tested on: Acinetobacter baumannii (seven strains) versus human red blood cells; conditions: HC50 (μM) human red blood cells 18 h 37°C / MICGM (μM) seven A. baumannii strains

**Q.** Which “T.I. (therapeutic index, HC50/MICGM)” value does the source give for `CC(=O)N[C@H](CCCCN)C(=O)N[C@H](CC(C)C)C(=O)N[C@H](CCCCN)C(=O)N[C@H](CO)C(=O)N[C@H](CC(C)C)C(=O)N[C@H](CC(C)C)C(=O)N[C@H](CCCCN)C(=O)N[C@@H](C(=O)N[C@H](CC(C)C)C(=O)N[C@H](CO)C(=O)N[C@H](CCCCN)C(=O)N[C@H](C)C(=O)N[C@H](CCCCN)C(=O)N[C@H](C)C(=O)N[C@H](C)C(=O)N[C@H](CCCCN)C(=O)N[C@H](CC(C)C)C(=O)N[C@H](CCCCN)C(=O)N[C@@H](C(=O)N[C@H](CC(C)C)C(=O)N[C@H](CC(C)C)C(=O)N[C@H](CCCCN)C(=O)N[C@H](C)C(=O)N[C@H](CC(C)C)C(=O)N[C@H](CO)C(=O)N[C@H](CO)C(N)=O)[C@H](C)O)[C@H](C)O` [D101(Lys^1Ser^26-5 Lys-1)] (Ac-[dK][dL][dK][dS][dL][dL][dK][dT][dL][dS][dK][dA][dK][dA][dA][dK][dL][dK][dT][dL][dL][dK][dA][dL][dS][dS]-NH2) here?
**A.** 129.9

**Q.** With `CC(=O)N[C@H](CCCCN)C(=O)N[C@H](CC(C)C)C(=O)N[C@@H](CCN)C(=O)N[C@H](CO)C(=O)N[C@H](CC(C)C)C(=O)N[C@H](CC(C)C)C(=O)N[C@@H](CCN)C(=O)N[C@@H](C(=O)N[C@H](CC(C)C)C(=O)N[C@H](CO)C(=O)N[C@H](C)C(=O)N[C@H](C)C(=O)N[C@H](CCCCN)C(=O)N[C@@H](CCN)C(=O)N[C@@H](CCN)C(=O)N[C@H](CCCCN)C(=O)N[C@H](CC(C)C)C(=O)N[C@H](C)C(=O)N[C@@H](C(=O)N[C@H](CC(C)C)C(=O)N[C@H](CC(C)C)C(=O)N[C@@H](CCN)C(=O)N[C@H](C)C(=O)N[C@H](CC(C)C)C(=O)N[C@H](CO)C(=O)N[C@H](CO)C(N)=O)[C@H](C)O)[C@H](C)O` [D104(Lys^1Ser^26-5 Dab-2)] (Ac-[dK][dL][Dab][dS][dL][dL][Dab][dT][dL][dS][dA][dA][dK][Dab][Dab][dK][dL][dA][dT][dL][dL][Dab][dA][dL][dS][dS]-NH2) as the molecule, how does the “T.I. (therapeutic index, HC50/MICGM)” value read?
**A.** >1863

**Q.** `CC(=O)N[C@H](CCCCN)C(=O)N[C@H](CC(C)C)C(=O)N[C@@H](CCN)C(=O)N[C@H](CO)C(=O)N[C@H](CC(C)C)C(=O)N[C@H](CC(C)C)C(=O)N[C@@H](CCN)C(=O)N[C@@H](C(=O)N[C@H](CC(C)C)C(=O)N[C@H](CO)C(=O)N[C@@H](CCN)C(=O)N[C@H](C)C(=O)N[C@H](CCCCN)C(=O)N[C@H](C)C(=O)N[C@H](C)C(=O)N[C@H](CCCCN)C(=O)N[C@H](CC(C)C)C(=O)N[C@@H](CCN)C(=O)N[C@@H](C(=O)N[C@H](CC(C)C)C(=O)N[C@H](CC(C)C)C(=O)N[C@@H](CCN)C(=O)N[C@H](C)C(=O)N[C@H](CC(C)C)C(=O)N[C@H](CO)C(=O)N[C@H](CO)C(N)=O)[C@H](C)O)[C@H](C)O` [D102(Lys^1Ser^26-5 Dab-1)] (Ac-[dK][dL][Dab][dS][dL][dL][Dab][dT][dL][dS][Dab][dA][dK][dA][dA][dK][dL][Dab][dT][dL][dL][Dab][dA][dL][dS][dS]-NH2) was tested. Which “T.I. (therapeutic index, HC50/MICGM)” value did it give?
**A.** >1012

**Q.** How did the “T.I. (therapeutic index, HC50/MICGM)” value turn out when `CC(=O)N[C@H](CCCCN)C(=O)N[C@H](CC(C)C)C(=O)N[C@H](CCCCN)C(=O)N[C@H](CO)C(=O)N[C@H](CC(C)C)C(=O)N[C@H](CC(C)C)C(=O)N[C@H](CCCCN)C(=O)N[C@@H](C(=O)N[C@H](CC(C)C)C(=O)N[C@H](CO)C(=O)N[C@H](C)C(=O)N[C@H](C)C(=O)N[C@H](CCCCN)C(=O)N[C@H](CCCCN)C(=O)N[C@H](CCCCN)C(=O)N[C@H](CCCCN)C(=O)N[C@H](CC(C)C)C(=O)N[C@H](C)C(=O)N[C@@H](C(=O)N[C@H](CC(C)C)C(=O)N[C@H](CC(C)C)C(=O)N[C@H](CCCCN)C(=O)N[C@H](C)C(=O)N[C@H](CC(C)C)C(=O)N[C@H](CO)C(=O)N[C@H](CCCCN)C(N)=O)[C@H](C)O)[C@H](C)O` [D88(Lys^1-6 Lys-2)] (Ac-[dK][dL][dK][dS][dL][dL][dK][dT][dL][dS][dA][dA][dK][dK][dK][dK][dL][dA][dT][dL][dL][dK][dA][dL][dS][dK]-NH2) was run?
**A.** 201.5

**Q.** With `CC(=O)N[C@H](CCCCN)C(=O)N[C@H](CC(C)C)C(=O)N[C@@H](CN)C(=O)N[C@H](CO)C(=O)N[C@H](CC(C)C)C(=O)N[C@H](CC(C)C)C(=O)N[C@@H](CN)C(=O)N[C@@H](C(=O)N[C@H](CC(C)C)C(=O)N[C@H](CO)C(=O)N[C@@H](CN)C(=O)N[C@H](C)C(=O)N[C@H](CCCCN)C(=O)N[C@H](C)C(=O)N[C@H](C)C(=O)N[C@H](CCCCN)C(=O)N[C@H](CC(C)C)C(=O)N[C@@H](CN)C(=O)N[C@@H](C(=O)N[C@H](CC(C)C)C(=O)N[C@H](CC(C)C)C(=O)N[C@@H](CN)C(=O)N[C@H](C)C(=O)N[C@H](CC(C)C)C(=O)N[C@H](CO)C(=O)N[C@@H](CN)C(N)=O)[C@H](C)O)[C@H](C)O` [D105(Lys^1-6 Dap-1)] (Ac-[dK][dL][Dap][dS][dL][dL][Dap][dT][dL][dS][Dap][dA][dK][dA][dA][dK][dL][Dap][dT][dL][dL][Dap][dA][dL][dS][Dap]-NH2) as the molecule, how does the “T.I. (therapeutic index, HC50/MICGM)” value read?
**A.** >957

**Q.** With `CC(=O)N[C@H](CCCCN)C(=O)N[C@H](CC(C)C)C(=O)N[C@H](CCCCN)C(=O)N[C@H](CO)C(=O)N[C@H](CC(C)C)C(=O)N[C@H](CC(C)C)C(=O)N[C@H](CCCCN)C(=O)N[C@@H](C(=O)N[C@H](CC(C)C)C(=O)N[C@H](CO)C(=O)N[C@H](CCCCN)C(=O)N[C@H](C)C(=O)N[C@H](CCCCN)C(=O)N[C@H](C)C(=O)N[C@H](C)C(=O)N[C@H](CCCCN)C(=O)N[C@H](CC(C)C)C(=O)N[C@H](CCCCN)C(=O)N[C@@H](C(=O)N[C@H](CC(C)C)C(=O)N[C@H](CC(C)C)C(=O)N[C@H](CCCCN)C(=O)N[C@H](C)C(=O)N[C@H](CC(C)C)C(=O)N[C@H](CO)C(=O)N[C@H](CCCCN)C(N)=O)[C@H](C)O)[C@H](C)O` [D84(Lys^1-6 Lys-1)] (Ac-[dK][dL][dK][dS][dL][dL][dK][dT][dL][dS][dK][dA][dK][dA][dA][dK][dL][dK][dT][dL][dL][dK][dA][dL][dS][dK]-NH2) as the molecule, how does the “T.I. (therapeutic index, HC50/MICGM)” value read?
**A.** 108.6

**Q.** With `CC(=O)N[C@H](CCCCN)C(=O)N[C@H](CC(C)C)C(=O)N[C@H](CCCCN)C(=O)N[C@H](CO)C(=O)N[C@H](CC(C)C)C(=O)N[C@H](CC(C)C)C(=O)N[C@H](CCCCN)C(=O)N[C@@H](C(=O)N[C@H](CC(C)C)C(=O)N[C@H](CO)C(=O)N[C@H](C)C(=O)N[C@H](C)C(=O)N[C@H](CCCCN)C(=O)N[C@H](CCCCN)C(=O)N[C@H](CCCCN)C(=O)N[C@H](CCCCN)C(=O)N[C@H](CC(C)C)C(=O)N[C@H](C)C(=O)N[C@@H](C(=O)N[C@H](CC(C)C)C(=O)N[C@H](CC(C)C)C(=O)N[C@H](CCCCN)C(=O)N[C@H](C)C(=O)N[C@H](CC(C)C)C(=O)N[C@H](CO)C(=O)N[C@H](CO)C(N)=O)[C@H](C)O)[C@H](C)O` [D103(Lys^1Ser^26-5 Lys-2)] (Ac-[dK][dL][dK][dS][dL][dL][dK][dT][dL][dS][dA][dA][dK][dK][dK][dK][dL][dA][dT][dL][dL][dK][dA][dL][dS][dS]-NH2) as the molecule, how does the “T.I. (therapeutic index, HC50/MICGM)” value read?
**A.** 192.7

**Q.** Which “T.I. (therapeutic index, HC50/MICGM)” value does the source give for `CC(=O)N[C@H](CCCCN)C(=O)N[C@H](CC(C)C)C(=O)N[C@@H](CN)C(=O)N[C@H](CO)C(=O)N[C@H](CC(C)C)C(=O)N[C@H](CC(C)C)C(=O)N[C@@H](CN)C(=O)N[C@@H](C(=O)N[C@H](CC(C)C)C(=O)N[C@H](CO)C(=O)N[C@H](C)C(=O)N[C@H](C)C(=O)N[C@H](CCCCN)C(=O)N[C@@H](CN)C(=O)N[C@@H](CN)C(=O)N[C@H](CCCCN)C(=O)N[C@H](CC(C)C)C(=O)N[C@H](C)C(=O)N[C@@H](C(=O)N[C@H](CC(C)C)C(=O)N[C@H](CC(C)C)C(=O)N[C@@H](CN)C(=O)N[C@H](C)C(=O)N[C@H](CC(C)C)C(=O)N[C@H](CO)C(=O)N[C@@H](CN)C(N)=O)[C@H](C)O)[C@H](C)O` [D106(Lys^1-6 Dap-2)] (Ac-[dK][dL][Dap][dS][dL][dL][Dap][dT][dL][dS][dA][dA][dK][Dap][Dap][dK][dL][dA][dT][dL][dL][Dap][dA][dL][dS][Dap]-NH2) here?
**A.** 425.3

**Q.** For `CC(=O)N[C@H](CCCCN)C(=O)N[C@H](CC(C)C)C(=O)N[C@@H](CCN)C(=O)N[C@H](CO)C(=O)N[C@H](CC(C)C)C(=O)N[C@H](CC(C)C)C(=O)N[C@@H](CCN)C(=O)N[C@@H](C(=O)N[C@H](CC(C)C)C(=O)N[C@H](CO)C(=O)N[C@@H](CCN)C(=O)N[C@H](C)C(=O)N[C@H](CCCCN)C(=O)N[C@H](C)C(=O)N[C@H](C)C(=O)N[C@H](CCCCN)C(=O)N[C@H](CC(C)C)C(=O)N[C@@H](CCN)C(=O)N[C@@H](C(=O)N[C@H](CC(C)C)C(=O)N[C@H](CC(C)C)C(=O)N[C@@H](CCN)C(=O)N[C@H](C)C(=O)N[C@H](CC(C)C)C(=O)N[C@H](CO)C(=O)N[C@@H](CCN)C(N)=O)[C@H](C)O)[C@H](C)O` [D86(Lys^1-6 Dab-1)] (Ac-[dK][dL][Dab][dS][dL][dL][Dab][dT][dL][dS][Dab][dA][dK][dA][dA][dK][dL][Dab][dT][dL][dL][Dab][dA][dL][dS][Dab]-NH2), which “T.I. (therapeutic index, HC50/MICGM)” value is on record?
**A.** >824

**Q.** `CC(=O)N[C@H](CCCCN)C(=O)N[C@H](CC(C)C)C(=O)N[C@@H](CCN)C(=O)N[C@H](CO)C(=O)N[C@H](CC(C)C)C(=O)N[C@H](CC(C)C)C(=O)N[C@@H](CCN)C(=O)N[C@@H](C(=O)N[C@H](CC(C)C)C(=O)N[C@H](CO)C(=O)N[C@H](C)C(=O)N[C@H](C)C(=O)N[C@H](CCCCN)C(=O)N[C@@H](CCN)C(=O)N[C@@H](CCN)C(=O)N[C@H](CCCCN)C(=O)N[C@H](CC(C)C)C(=O)N[C@H](C)C(=O)N[C@@H](C(=O)N[C@H](CC(C)C)C(=O)N[C@H](CC(C)C)C(=O)N[C@@H](CCN)C(=O)N[C@H](C)C(=O)N[C@H](CC(C)C)C(=O)N[C@H](CO)C(=O)N[C@@H](CCN)C(N)=O)[C@H](C)O)[C@H](C)O` [D89(Lys^1-6 Dab-2)] (Ac-[dK][dL][Dab][dS][dL][dL][Dab][dT][dL][dS][dA][dA][dK][Dab][Dab][dK][dL][dA][dT][dL][dL][Dab][dA][dL][dS][Dab]-NH2) was tested. Which “T.I. (therapeutic index, HC50/MICGM)” value did it give?
**A.** >1589
